Anti-infective test results gathered from many reports (values: NIAID ChemDB through PubChem).

Shared fields: growth or infection tests; species: Mycobacterium avium complex; read-out: MIC

Rows are shuffled and stem from different studies.

structure	strain	value
NCC[C@H](O)C(=O)N[C@@H]1C[C@H](N)[C@@H](O[C@H]2O[C@H](CN)[C@@H](O)[C@H](O)[C@H]2O)[C@H](O)[C@H]1O[C@H]1O[C@H](CO)[C@@H](O)[C@H](N)[C@H]1O	SK46/HIV+	2.5 µg/mL
NCC[C@H](O)C(=O)N[C@@H]1C[C@H](N)[C@@H](O[C@H]2O[C@H](CN)[C@@H](O)[C@H](O)[C@H]2O)[C@H](O)[C@H]1O[C@H]1O[C@H](CO)[C@@H](O)[C@H](N)[C@H]1O	1129	10 µg/mL
CC[C@@H](CO)NCCN[C@@H](CC)CO	N-314 (HIV-)	8 µg/mL
CCN(CC)CC1CCN(c2c(F)cc3c(=O)c(C(=O)O)cn(C4CC4)c3c2F)C1	1988557	2 µg/mL
NCCC[C@H](N)CC(=O)N[C@H]1CNC(=O)[C@H]([C@H]2C[C@H](O)NC(N)=N2)NC(=O)/C(=C/NC(N)=O)NC(=O)[C@H](CO)NC(=O)[C@H](CO)NC1=O	TMC 1403	6.25 µg/mL
CC[C@H]1OC(=O)[C@H](C)[C@@H](O[C@H]2C[C@@](C)(OC)[C@@H](O)[C@H](C)O2)[C@H](C)[C@@H](O[C@@H]2O[C@H](C)C[C@H](N(C)C)[C@H]2O)[C@](C)(OC)C[C@@H](C)C(=O)[C@H](C)[C@@H](O)[C@]1(C)O	3213	8 µg/mL
CN[C@@H]1[C@H](O[C@H]2[C@H](O[C@H]3[C@H](O)[C@@H](O)[C@H](N=C(N)N)[C@@H](O)[C@@H]3N=C(N)N)O[C@@H](C)[C@]2(O)C=O)O[C@@H](CO)[C@H](O)[C@H]1O	Isolate C-50	≤12.5 µg/mL
CC(C)(N)C1CCN(c2c(F)cc3c(=O)c(C(=O)O)cn(C4CC4)c3c2F)C1	PI12/39	2 µg/mL
CO[C@H]1/C=C/O[C@@]2(C)Oc3c(C)c(O)c4c(O)c(c(/C=N/N5CCN(C)CC5)c(O)c4c3C2=O)NC(=O)/C(C)=C\C=C\[C@H](C)[C@H](O)[C@@H](C)[C@@H](O)[C@@H](C)[C@H](OC(C)=O)[C@@H]1C	1257/HIV-	2 µg/mL
NCCC(O)C(N)CC(=O)NC1CNC(=O)C(C2CCN=C(N)N2)NC(=O)/C(=C/NC(N)=O)NC(=O)C(CO)NC(=O)C(CO)NC1=O	Isolate 135	100 µg/mL
CN[C@@H]1[C@H](O[C@H]2[C@H](O[C@H]3[C@H](O)[C@@H](O)[C@H](N=C(N)N)[C@@H](O)[C@@H]3N=C(N)N)O[C@@H](C)[C@]2(O)C=O)O[C@@H](CO)[C@H](O)[C@H]1O	13887 (serotype 14)	0.4 µg/mL
CN[C@@H]1[C@H](O[C@H]2[C@H](O[C@H]3[C@H](O)[C@@H](O)[C@H](N=C(N)N)[C@@H](O)[C@@H]3N=C(N)N)O[C@@H](C)[C@]2(O)C=O)O[C@@H](CO)[C@H](O)[C@H]1O	Isolate 93	100 µg/mL
NC[C@H]1O[C@H](O[C@H]2[C@H](O)[C@@H](O[C@H]3O[C@H](CO)[C@@H](O)[C@H](N)[C@H]3O)[C@H](N)C[C@@H]2N)[C@H](O)[C@@H](O)[C@@H]1O	N-945 (HIV+)	4 µg/mL
CN(C)CC1CCN(c2c(F)cc3c(=O)c(C(=O)O)cn(C4CC4)c3c2F)C1	1988557	0.5 µg/mL
NCC[C@H](O)C(=O)N[C@@H]1C[C@H](N)[C@@H](O[C@H]2O[C@H](CN)[C@@H](O)[C@H](O)[C@H]2O)[C@H](O)[C@H]1O[C@H]1O[C@H](CO)[C@@H](O)[C@H](N)[C@H]1O	3211	32 µg/mL
CO[C@H]1/C=C/O[C@@]2(C)Oc3c(C)c(O)c4c(O)c(c5c(c4c3C2=O)NC2(CCN(CC(C)C)CC2)N=5)=NC(=O)/C(C)=C\C=C\[C@H](C)[C@H](O)[C@@H](C)[C@@H](O)[C@@H](C)[C@H](OC(C)=O)[C@@H]1C	3009-4	1 µg/mL
CO[C@H]1/C=C/O[C@@]2(C)Oc3c(C)c(O)c4c(O)c(c(/C=N/N5CCN(C/C=C/c6ccccc6)CC5)c(O)c4c3C2=O)NC(=O)/C(C)=C\C=C\[C@H](C)[C@H](O)[C@@H](C)[C@@H](O)[C@@H](C)[C@H](OC(C)=O)[C@@H]1C	LR549	≤0.015 µg/mL
O=C(O)c1cn(C2CC2)c2c(F)c(N3CCNCC3)c(F)cc2c1=O	1915112	2 µg/mL
CCn1cc(C(=O)O)c(=O)c2cc(F)c(N3CCN(C)CC3)cc21	CIPT 14031001	10 µg/mL
O=C(O)c1cn(C2CC2)c2c(F)c(N3CCS(=O)(=O)CC3)c(F)cc2c1=O	1988557	4 µg/mL
NC[C@@H]1O[C@H](O[C@H]2[C@@H](O)[C@H](O[C@@H]3[C@@H](O)[C@H](N)C[C@H](N)[C@H]3O[C@H]3O[C@H](CO)[C@@H](O)[C@H](O)[C@H]3N)O[C@@H]2CO)[C@H](N)[C@@H](O)[C@@H]1O	TMC 1411	0.19 µg/mL
CC1CCN(c2c(F)cc3c(=O)c(C(=O)O)cn(C4CC4)c3c2F)C1	1760694	8 µg/mL
NC[C@@H]1O[C@H](O[C@H]2[C@@H](O)[C@H](O[C@@H]3[C@@H](O)[C@H](N)C[C@H](N)[C@H]3O[C@H]3O[C@H](CO)[C@@H](O)C[C@H]3N)O[C@@H]2CO)[C@H](N)[C@@H](O)[C@@H]1O[C@H]1O[C@H](CO)[C@@H](O)[C@H](O)[C@@H]1O	TMC 1411	0.05 µg/mL
NNC(=O)c1ccncc1	13008 (serotype 20)	0.8 µg/mL
NCC[C@H](O)C(=O)N[C@@H]1C[C@H](N)[C@@H](O[C@H]2O[C@H](CN)[C@@H](O)[C@H](O)[C@H]2O)[C@H](O)[C@H]1O[C@H]1O[C@H](CO)[C@@H](O)[C@H](N)[C@H]1O	551/HIV+	2 µg/mL
NCC[C@H](O)C(=O)N[C@@H]1C[C@H](N)[C@@H](O[C@H]2O[C@H](CN)[C@@H](O)[C@H](O)[C@H]2O)[C@H](O)[C@H]1O[C@H]1O[C@H](CO)[C@@H](O)[C@H](N)[C@H]1O	Isolate 49	50 µg/mL
CC[C@H]1OC(=O)[C@H](C)[C@@H](O[C@H]2C[C@@](C)(OC)[C@@H](O)[C@H](C)O2)[C@H](C)[C@@H](O[C@@H]2O[C@H](C)C[C@H](N(C)C)[C@H]2O)[C@](C)(OC)C[C@@H](C)C(=O)[C@H](C)[C@@H](O)[C@]1(C)O	866	2 µg/mL
NC[C@@H]1O[C@H](O[C@H]2[C@@H](O)[C@H](O[C@@H]3[C@@H](O)[C@H](N)C[C@H](N)[C@H]3O[C@H]3O[C@H](CO)[C@@H](O)[C@H](O)[C@H]3N)O[C@@H]2CO)[C@H](N)[C@@H](O)[C@@H]1O	562/HIV+	<1.56 µg/mL
O=C(O)c1cn(C2CC2)c2c(F)c(N3CC4CCCC(C3)N4)c(F)cc2c1=O	1988557	4 µg/mL
CC[C@@H](CO)NCCN[C@@H](CC)CO	3214	16 µg/mL
CC1COc2c(N3CCN(C)CC3)c(F)cc3c(=O)c(C(=O)O)cn1c23	CIPT 14031003	10 µg/mL
O=C(O)c1cn(C2CC2)c2c(F)c(N3CC4CC3CN4)c(F)cc2c1=O	1172733	2 µg/mL

For reference, 2 entries again:

structure | strain | value
CC(C)(N)C1CCN(c2c(F)cc3c(=O)c(C(=O)O)cn(C4CC4)c3c2F)C1 | PI12/39 | 2 µg/mL
CC[C@@H](CO)NCCN[C@@H](CC)CO | 3214 | 16 µg/mL